This experiment relates to Staphylococcus aureus. Briefly: Antibacterial activity against Staphylococcus aureus N133 infected in mouse assessed as bacterial growth reduction.

The ED50 is the dose that gives a 50% effect, or the effect in half of the subjects. In the case of `CC(=O)O.CCCO/N=C(\C(=O)N[C@@H]1C(=O)N2C(C(=O)[O-])=C(Sc3nc(-c4cc[n+](C)cc4)cs3)CS[C@H]12)c1csc(NP(=O)(O)O)n1`, the ED50 came out at 1.6 mg/kg.

For the origin of these results see ChEMBL document CHEMBL5385871, “Application and synthesis of thiazole ring in clinically approved drugs” (Eur J Med Chem, 2023).
